Experimental data published in publication PMC6099617, “Synthesis of Antibacterial Nisin–Peptoid Hybrids Using Click Methodology” (Molecules : A Journal of Synthetic Chemistry and Natural …, 2018).
Converted amounts (≈) assume the structure as drawn.

System: methicillin-resistant Staphylococcus aureus USA 300
Assay: MIC determination against methicillin-resistant S. aureus USA300 (broth microdilution, CLSI)
Details: MRSA USA300, CAMHB, overnight incubation 35 °C, visual inspection, duplicate

C=C1NC(=O)[C@H]([C@@H](C)CC)NC(=O)[C@H](NC(=O)/C(=C/C)NC(=O)[C@@H](N)[C@@H](C)CC)CSC[C@@H](C(=O)N[C@H]2C(=O)N3CCC[C@H]3C(=O)NCC(=O)N[C@H](C(=O)N[C@@H](CCCCN)C(=O)NCCCN=[N+]=[N-])CS[C@H]2C)NC(=O)[C@H](CC(C)C)NC1=O
MIC S. aureus (USA300): 26 µM (≈ 32 µg/mL)
